Target: T1, Bach1 [(Dabcyl)-R-G-V-V-N-A-/-S-S-R-L-A-(EDANS)]
T1 chain: RGVVNASSRLA

B1: recombinant CMV protease (Herpesvirus 5 (CMV), Strain AD-169) (protein)
chain: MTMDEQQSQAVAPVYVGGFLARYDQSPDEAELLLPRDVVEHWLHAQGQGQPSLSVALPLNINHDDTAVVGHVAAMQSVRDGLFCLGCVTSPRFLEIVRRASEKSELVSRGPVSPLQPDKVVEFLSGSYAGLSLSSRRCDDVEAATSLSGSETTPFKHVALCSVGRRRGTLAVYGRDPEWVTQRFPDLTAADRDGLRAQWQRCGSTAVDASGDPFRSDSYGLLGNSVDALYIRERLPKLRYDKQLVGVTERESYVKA
In the case of B1, the “cleavage of FRET substrate (cross reactivity test)” value is reported as “CMV protease only cleaved substrates containing a CMV protease cleavage site”.

From patent US20110306035A1, “Methods and Compositions for Detection of a Pathogen, Disease, Medical Condition, or Biomarker Thereof” (priority 2008, published 2011)
